Compound potency records, mixed from different reports. Data source: NIAID ChemDB in PubChem.

All rows: growth or infection tests; species: HIV-1; read by: ELISA; endpoint: EC50

ECn is the concentration giving n% inhibition of infection, replication or growth. Blank or dashed fields: not listed here. Lines come from different laboratories, so protocols vary.

smiles | strain or isolate | cell line | mutations | result
CC1(C)[C@@H](O[C@H]2O[C@H](C(=O)O)[C@@H](O)[C@H](O)[C@H]2O[C@@H]2O[C@H](C(=O)O)[C@@H](O)[C@H](O)[C@H]2O)CC[C@]2(C)[C@H]3C(=O)C=C4[C@@H]5C[C@@](C)(C(=O)O)CC[C@]5(C)CC[C@@]4(C)[C@]3(C)CC[C@@H]12 | EVK | MT-4 |  | <500 µg/mL
Cc1ccnc2c1NC(=O)c1cccnc1N2C1CC1 | Clinical isolate | C8166 | 74V | 0.039 µM
O=c1c(O[C@@H]2O[C@H](CO)[C@@H](O)[C@H](O)[C@H]2O)c(-c2ccc(O)cc2)oc2cc(O)cc(O)c12 | MN | C8166 |  | 8 µg/mL
CCCCCCCCCCCCCC(=O)OC[C@@H](COP(=O)(O)OC[C@@H]1CC[C@H](n2cc(C)c(=O)[nH]c2=O)O1)OC(=O)CCCCCCCCCCCCC | LAV-Bru | CEM13 + CEM |  | ~1 µM
Cc1cn([C@H]2C[C@H](F)[C@@H](CO)O2)c(=O)[nH]c1=O | 4737 | PBMC |  | 0.005 µM
O=C(O)c1ccc2ccc(/C=C/c3ccc([N+](=O)[O-])cc3)nc2c1O |  | CEM |  | >43 µM
NS(=O)(=O)c1ccc(Oc2ccc(NC(=O)N[C@@H]3[C@@H]4CCc5c(F)ccc(F)c5[C@@H]43)cc2)cc1 | IIIB | MT-4 cells |  | 0.00097 µM
Cc1cn([C@H]2C[C@H](N=[N+]=[N-])[C@@H](CO)O2)c(=O)[nH]c1=O | GB8)/1(IIIB | JM |  | 100 µM
CC(=O)Nc1ccc(/C=C/c2ccc3ccc(C(=O)O)c(O)c3n2)cc1 |  | CEM |  | >47 µM
COc1ccc(OP(=O)(OC[C@H]2O[C@@H](n3cc(C)c(=O)[nH]c3=O)C[C@@H]2N=[N+]=[N-])Oc2ccc(OC)cc2)cc1 | IIIB | C8166 |  | 1.6 µM
O=C(OCC1OC(OCCc2ccccc2)C(O)C(O)C1O)c1cc(O)c(O)c(O)c1 | MN | C8166 |  | 40 µg/mL
CC1CNC(=O)c2ccccc2SSc2ccccc2C(=O)N1 | IIIB | H9 |  | 0.05 µg/mL
Cc1ccnc2c1NC(=O)c1cccnc1N2C1CC1 | SF33 | TZM-bl |  | 0.05 µM
Cc1cn([C@H]2C[C@H](N=[N+]=[N-])[C@@H](CO)O2)c(=O)[nH]c1=O | MN | C8166 |  | 0.016 µM
CCCCCCCCCCCCCC(=O)OC[C@H](COP(=O)(O)OC[C@@H]1CC[C@H](n2cnc3c(=O)[nH]c(N)nc32)O1)OC(=O)CCCCCCCCCCCCC | LAV-Bru | CEM13 + CEM |  | <10 µM
Cc1cn([C@H]2C[C@H](N=[N+]=[N-])[C@@H](COP(=O)(Oc3ccc(C#N)cc3)Oc3ccc(C#N)cc3)O2)c(=O)[nH]c1=O | GB8)/1(IIIB | JM |  | 50 µM
CCCCCCCCCCCCCC(=O)OC[C@@H](COP(=O)(O)OC[C@@H]1CC[C@H](n2ccc(N)nc2=O)O1)OC(=O)CCCCCCCCCCCCC | IIIB | MT-4 |  | <10 µM
CC(C)(C)NC(=O)[C@@H]1C[C@@H]2CCCC[C@@H]2CN1C[C@@H](O)[C@H](Cc1ccccc1)NC(=O)[C@H](CC(N)=O)NC(=O)c1ccc2ccccc2n1 | MN | C8166 |  | <0.001 µg/mL
CO[P@](=O)(c1cc(C)cc(/C=C/C#N)c1)c1c(C(N)=O)[nH]c2ccc(Cl)cc12 | NL4-3 | MT-4 | K103N/Y181C | 0.0065 µM
Nc1nc2c(ncn2[C@H]2CC[C@@H](CO)O2)c(=O)[nH]1 | IIIB | MT-4 |  | <10 µM
Cc1cn([C@H]2C[C@H](N=[N+]=[N-])[C@@H](COP(=O)(Oc3ccc(C(F)(F)F)cc3)Oc3ccc(C(F)(F)F)cc3)O2)c(=O)[nH]c1=O | IIIB | C8166 |  | 0.0064 µM
O=C(O)c1ccc2ccc(/C=C/c3ccccc3)nc2c1O |  | CEM |  | >31 µM

The first 2 rows once more:

| smiles | strain or isolate | cell line | mutations | result |
|---|---|---|---|---|
| CC1(C)[C@@H](O[C@H]2O[C@H](C(=O)O)[C@@H](O)[C@H](O)[C@H]2O[C@@H]2O[C@H](C(=O)O)[C@@H](O)[C@H](O)[C@H]2O)CC[C@]2(C)[C@H]3C(=O)C=C4[C@@H]5C[C@@](C)(C(=O)O)CC[C@]5(C)CC[C@@]4(C)[C@]3(C)CC[C@@H]12 | EVK | MT-4 |  | <500 µg/mL |
| Cc1ccnc2c1NC(=O)c1cccnc1N2C1CC1 | Clinical isolate | C8166 | 74V | 0.039 µM |